Reference: patent US20250283871A1, “COMPOSITIONS AND METHODS FOR MODULATING THE INTERACTION BETWEEN SS18-SSX FUSION ONCOPROTEIN AND NUCLEOSOMES” (Dana-Farber Cancer Institute, Inc., priority 2020, published 2025)

System: BAF complex subunits and histone proteins
Experiment: Mass spectrometry proteomics of purified HA-SS18 WT and HA-SS18-SSX1 complexes (Tables 5A-5E)
Set-up: species or system human
Settings: HEK-293T
[1] = HA-SS18SSX1_NE_peptides (Table 5B), HA-SS18-SSX1 BAF complex purification from soluble nuclear extract
[2] = HA-SS18WT_NE_peptides: proteins co-purified with HA-SS18 WT from nuclear extract (NE)

B1: SPNS1 (protein, UniProt Q9H2V7 2-528, looked up)
Protein spinster homolog 1: AGSDTAPFLSQADDPDDGPVPGTPGLPGSTGNPKSEEPEVPDQEGLQRITGLSPGRSALIVAVLCYINLLNYMDRFTVAGVLPDIEQFFNIGDSSSGLIQTVFISSYMVLAPVFGYLGDRYNRKYLMCGGIAFWSLVTLGSSFIPGEHFWLLLLTRGLVGVGEASYSTIAPTLIADLFVADQRSRMLSIFYFAIPVGSGLGYIAGSKVKDMAGDWHWALRVTPGLGVVAVLLLFLVVREPPRGAVERHSDLPPLNPTSWWADLRALARNPSFVLSSLGFTAVAFVTGSLALWAPAFLLRSRVVLGETPPCLPGDSCSSSDSLIFGLITCLTGVLGVGLGVEISRRLRHSNPRADPLVCATGLLGSAPFLFLSLACARGSIVATYIFIFIGETLLSMNWAIVADILLYVVIPTRRSTAEAFQIVLSHLLGDAGSPYLIGLISDRLRRNWPPSFLSEFRALQFSLMLCAFVGALGGAAFLGTAIFIEADRRRAQLHVQGLLHEAGSTDDRIVVPQRGRSTRVPVASVLI
[1]
  AVG: 2.3667
  Total (peptides): 1
  Unique (peptides): 1
[2]
  AVG: 2.6569
  Total (peptides): 2
  Unique (peptides): 2
